Experiment [1] in a line: First order rate constant for Alkylation reaction by the compound (50 mM) at temperature 38 degrees C with 1 M Tris at pH 7.4.
Experiment [2] can be described thus: First order rate constant for Alkylation reaction by the compound (17 mM) at temperature 27 degree C with 1 M lutidine at pH 7.4 in the presence of 10 mol equiv of 2-mercaptoethanol.
Experiment [3] in a line: Second order rate constant for Alkylation reaction by the compound (17 mM) at temperature 47 degree C with 1 M lutidine at pH 7.4 in the presence of 10 mol equiv of 2-mercaptoethanol.
Experiment [4] in a line: Second order rate constant for Alkylation reaction by the compound (12 mM) at temperature 20 degrees C with 1 M lutidine at pH 7.4 in the presence of 50 mol equiv of 2-mercaptoethanol.
Experiment [5] can be described thus: Pka value at 20 degrees C; ranges from 4.6-4.8.
The nature of experiment [6]: First order rate constant for Alkylation reaction by the compound (17 mM) at temperature 37 degree C with 1 M Tris at pH 7.4 in the presence of 10 mol equiv of 2-mercaptoethanol.
A short description of experiment [7]: Second order rate constant for Alkylation reaction by the compound (17 mM) at temperature 37 degree C with 1 M Tris at pH 7.4 in the presence of 10 mol equiv of 2-mercaptoethanol.
Experiment [8] is described as follows: First order rate constant for Alkylation reaction by the compound (17 mM) at temperature 37 degree C with 1 M lutidine at pH 7.4 in the presence of 10 mol equiv of 2-mercaptoethanol.
A short description of experiment [9]: First order rate constant for Alkylation reaction by the compound (12 mM) at temperature 20 degrees C with 1 M lutidine at pH 7.4 in the presence of 50 mol equiv of 2-mercaptoethanol.

Consider `NP(=O)(O)N(CCCl)CCCl`, for which the K1 in [1] was 37.1 10e-3 min-1; in experiment [2], 6.79 10e-3 min-1; in [6] it was 37.7 10e-3 min-1; in experiment [8], 35.4 10e-3 min-1; in experiment [9] it was 2.16 10e-3 min-1. The results for the K2 in [3], in [4] and in experiment [7] were 44.3 10e-3 min-1, 2.67 10e-3 min-1 and 32.7 10e-3 min-1, respectively. The molecule further came in with a Pka in experiment [5] of 4.6.
